Values from PubChem BioAssay AID624099 (ICCB-Longwood, 2012).

Aim: 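Human genes that papillomavirus E2 requires to repress the HPV18 LCR promoter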 (primary screen)
Cells: human C33A cervical carcinoma cells (HPV-negative) stably expressing BPV1 E2 and an HPV18 LCR luciferase reporter
Reagents: siRNA pool against human genes, 40 nM
Time to read-out: 72 h
Measurement: 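HPV18 LCR reporter light per well, converted to plate-wise z-scores that exclude control wells, and averaged over triplicate plates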
Direction: mean z-score and z-score: higher = stronger reporter signal, weaker E2 silencing
Call rule: 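Mean z ≥ 2 together with z ≥ 2 in two or more of the three replicates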
Shown is an unselected part of about 21,000 reagents. 497 of them (2.4%) count as active. 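Higher z means weaker E2 silencing; only reporter increases were scored, and knock-downs that hurt cell survival may mask genuine repressor factors.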

| gene symbol | PubChem SID | mean z-score | z-score, replicate A | z-score, replicate B | z-score, replicate C | outcome |
| --- | --- | --- | --- | --- | --- | --- |
| H3C14 (H3 clustered histone 14) | SID134322908 | -0.57 | -0.57 | -0.57 | -0.58 | inactive |
| CHST6 (carbohydrate sulfotransferase 6) | SID134313906 | -1.34 | -1.05 | -1.04 | -1.93 | inactive |
| TEX261 (testis expressed 261) | SID134320195 | -0.37 | -0.53 | -0.22 | -0.35 | inactive |
| PALM2AKAP2 (PALM2 and AKAP2 fusion) | SID134319237 | 0.64 | 0.39 | 1.08 | 0.45 | inactive |
| PALM2AKAP2 (PALM2 and AKAP2 fusion) | SID134321291 | 1.28 | 0.8 | 1.61 | 1.43 | inactive |
| TMEM184A (transmembrane protein 184A) | SID134320872 | -1.6 | -1.76 | -1.78 | -1.27 | inactive |
| ROPN1B (rhophilin associated tail protein 1B) | SID134325754 | -0.46 | -0.83 | -0.32 | -0.22 | inactive |
| MAGI1 | SID134316234 | -0.77 | -1.22 | -0.62 | -0.48 | inactive |
| TRIR (telomerase RNA component interacting RNase) | SID134318439 | 0.12 | 0.26 | 0.2 | -0.1 | inactive |
| RAB9B (RAB9B, member RAS oncogene family) | SID134314702 | 0.06 | 0.08 | 0.08 | 0.03 | inactive |
| ASB12 (ankyrin repeat and SOCS box containing 12) | SID134317414 | -0.72 | -0.97 | -0.43 | -0.76 | inactive |
| HCCS (holocytochrome c synthase) | SID134313993 | -0.57 | -0.66 | -0.53 | -0.53 | inactive |
| SCN8A (sodium voltage-gated channel alpha subunit 8) | SID134311826 | -0.61 | -0.44 | -0.48 | -0.92 | inactive |
| FAM111A (FAM111 trypsin like peptidase A) | SID134318122 | 0.43 | 0.46 | 0.11 | 0.71 | inactive |
| SLC60A1 | SID134322411 | -0.43 | -0.5 | 0 | -0.78 | inactive |
| RPP30 (ribonuclease P/MRP subunit p30) | SID134319381 | -1.34 | -1.24 | -1.35 | -1.42 | inactive |
| MEA1 (male-enhanced antigen 1) | SID134324060 | -0.1 | -0.21 | -0.01 | -0.09 | inactive |
| SLC17A3 | SID134312461 | -0.1 | -0.21 | 0 | -0.1 | inactive |
| EHBP1L1 (EH domain binding protein 1 like 1) | SID134326603 | -4.93 | -4.84 | -5.34 | -4.62 | inactive |
| MTHFD1L | SID134314640 | 1.09 | 0.93 | 1.37 | 0.97 | inactive |
| SMAP2 (small ArfGAP2) | SID134318384 | -1.11 | -1.1 | -1.37 | -0.85 | inactive |
| TCAP (titin-cap) | SID134315830 | -0.18 | -0.15 | -0.09 | -0.31 | inactive |

Next part (2 carried over from the part before).
| gene symbol | PubChem SID | mean z-score | z-score, replicate A | z-score, replicate B | z-score, replicate C | outcome |
| --- | --- | --- | --- | --- | --- | --- |
| SMAP2 (small ArfGAP2) | SID134318384 | -1.11 | -1.1 | -1.37 | -0.85 | inactive |
| TCAP (titin-cap) | SID134315830 | -0.18 | -0.15 | -0.09 | -0.31 | inactive |
| RCC2 (regulator of chromosome condensation 2) | SID134318038 | -0.78 | -0.69 | -0.7 | -0.95 | inactive |
| TAAR2 (trace amine associated receptor 2) | SID134311024 | -1.16 | -1.31 | -1.26 | -0.9 | inactive |
| COG5 (component of oligomeric golgi complex 5) | SID134322932 | 2.72 | 2.79 | 2.68 | 2.69 | active |
| SPMIP2 (sperm microtubule inner protein 2) | SID134319583 | -0.65 | -0.45 | -0.72 | -0.78 | inactive |
| CDC14A (cell division cycle 14A) | SID134309916 | 0.34 | 0.04 | 0.57 | 0.43 | inactive |
| KIAA0586 | SID134324522 | -0.07 | -0.04 | 0.06 | -0.24 | inactive |
| TYR (tyrosinase) | SID134316819 | -1.33 | -1.78 | -0.99 | -1.23 | inactive |
| UBE3B (ubiquitin protein ligase E3B) | SID134312316 | -0.55 | -0.5 | -0.69 | -0.45 | inactive |
| SUGCT (succinyl-CoA:glutarate-CoA transferase) | SID134318583 | -1.33 | -1.07 | -1.37 | -1.55 | inactive |
| BRD8 (bromodomain containing 8) | SID134311763 | 3.18 | 2.85 | 3.38 | 3.32 | active |
| TPRA1 (transmembrane protein adipocyte associated 1) | SID134311176 | -0.09 | -0.14 | 0.28 | -0.41 | inactive |
| TMEM18 (transmembrane protein 18) | SID134320904 | 0.34 | -0.1 | 0.42 | 0.7 | inactive |
| UBXN2B (UBX domain protein 2B) | SID134326415 | 0.79 | 0.98 | 0.97 | 0.43 | inactive |
| STARD10 (StAR related lipid transfer domain containing 10) | SID134317000 | -1.35 | -1.05 | -1.18 | -1.81 | inactive |
| CPEB3 (cytoplasmic polyadenylation element binding protein 3) | SID134324157 | 0.81 | 0.81 | 0.73 | 0.9 | inactive |
| ANP32D (acidic nuclear phosphoprotein 32 family member D) | SID134316742 | -0.71 | -0.62 | -0.96 | -0.56 | inactive |
| FBXL16 (F-box and leucine rich repeat protein 16) | SID134320773 | -0.55 | -0.53 | -1.04 | -0.09 | inactive |
| KCNAB2 | SID134314123 | -0.24 | -0.17 | -0.05 | -0.5 | inactive |
| ZFHX4 (zinc finger homeobox 4) | SID134322671 | -0.69 | -0.38 | -0.54 | -1.15 | inactive |
| LIN37 (lin-37 DREAM MuvB core complex component) | SID134317541 | -0.23 | -0.36 | -0.08 | -0.25 | inactive |
| UBASH3A (ubiquitin associated and SH3 domain containing A) | SID134313482 | 0.44 | 0.59 | -0.05 | 0.79 | inactive |
| FAM151A (family with sequence similarity 151 member A) | SID134321673 | -0.31 | -0.62 | -0.05 | -0.25 | inactive |
| NSRP1 (nuclear speckle splicing regulatory protein 1) | SID134318891 | 0.24 | 0.43 | -0.13 | 0.41 | inactive |
| FBXO8 (F-box protein 8) | SID134316707 | -1.2 | -1.16 | -1.09 | -1.34 | inactive |
| MS4A6A (membrane spanning 4-domains A6A) | SID134317143 | -0.89 | -1.06 | -0.88 | -0.73 | inactive |
| CCDC197 (coiled-coil domain containing 197) | SID134320258 | -0.25 | -0.31 | -0.11 | -0.34 | inactive |
| ADCY10 (adenylate cyclase 10) | SID134311747 | -0.4 | -0.19 | -0.29 | -0.73 | inactive |
| ARAP2 (ArfGAP with RhoGAP domain, ankyrin repeat and PH domain 2) | SID134314062 | 1.52 | 1.28 | 1.86 | 1.44 | inactive |
| TEX101 (testis expressed 101) | SID134320166 | 1.02 | 0.9 | 1.01 | 1.16 | inactive |
| ATAD3C (ATPase family AAA domain containing 3C) | SID134326817 | -0.81 | -0.89 | -0.73 | – | inactive |
| PAFAH2 (platelet activating factor acetylhydrolase 2) | SID134313450 | -0.6 | -0.79 | -0.6 | -0.4 | inactive |
| HPF1 (histone PARylation factor 1) | SID134324482 | 0.91 | 1.19 | 1.41 | 0.13 | inactive |
| CLEC2B (C-type lectin domain family 2 member B) | SID134324958 | 0.42 | 0.71 | 0.47 | 0.08 | inactive |
| LTBP3 (latent transforming growth factor beta binding protein 3) | SID134318321 | -0.2 | -0.13 | -0.37 | -0.11 | inactive |
| PHKA2 (phosphorylase kinase regulatory subunit alpha 2) | SID56479176 | -0.64 | -0.47 | -0.75 | -0.7 | inactive |
